Measured values from several laboratories, pooled; numbers as filed in NIAID ChemDB.

Common to all: growth or infection tests; agent: Hepatitis C virus; cells: Huh7; endpoint: EC50

ECn: concentration that inhibits the pathogen or its effect by n%.

compound	strain or isolate	method	result
O=C(O)/C=C/c1ccc(NC(=O)C2(NC(=O)c3ccc4c(C5CCCCC5)c5n(c4c3)CCCc3occc3-5)CCCC2)cc1	-	replicon	0.01–1 µM
CCOc1nc(NCc2ccc(F)cc2)nc2ncc(-c3ccc(F)cc3)nc12	HCV replicon	replicon	<0.3 µM
COC(=O)c1ccc2c(C3CCCCC3)c3n(c2c1)CC(C(=O)N1CCOCC1)=Cc1ccncc1-3	-	replicon	1–10 µM
CC(C)[C@H](NP(=O)(OC[C@H]1O[C@@H](c2cnc3c(=O)[nH]c(N)nn23)[C@](C)(O)[C@@H]1O)Oc1cccc2ccccc12)C(=O)OCc1ccccc1	-	luciferase / reporter gene	>50 µM
Nc1nc(N2CCOCC2)c2nc(-c3ccoc3)cnc2n1	-	-	1–10 µM
CC1=CN(c2ccc([N+](=O)[O-])cc2)[C@@H](c2ccc(C(F)(F)F)cc2)[C@@H](C)C1=O	1b	replicon	23.2 µM
COC(=O)/C=C/c1ccc(NC(=O)C2(NC(=O)c3ccc4c(C5CCCCC5)c5n(c4c3)CCCc3ncccc3-5)CCCC2)cc1	-	replicon	0.01–1 µM
O=C(Cc1ccccc1)N/N=C/c1ccccc1OS(=O)(=O)c1cccc(Cl)c1	-	replicon	>50 µM
CC(C)(C)NC(=O)N[C@H](C(=O)N1C[C@H]2[C@@H]([C@H]1C(=O)NC(CC1CCC1)C(=O)C(N)=O)C2(C)C)C(C)(C)C	1b	-	1.1 µM
CCCCCCCCOC(=O)Nc1ncnn2c([C@@H]3O[C@H](CO)[C@@H](O)[C@@]3(C)O)ccc12	-	luciferase / reporter gene	19 µM
COc1ccc(C#Cc2cn([C@@H]3O[C@H](CO)[C@@H](O)[C@H]3OC)c(=O)[nH]c2=O)cc1	-	replicon	>300 µM
Cc1cc(-c2nnc(NC3CC(O)C3)o2)nc2c(C(C)(C)C)cc(OCC(F)(F)F)cc12	GT 1b H94N	-	0.741 µM
COc1cc(Cc2cnc(/N=C3\C(=O)N(CN4CCN(c5c(F)cc6c(=O)c(C(=O)O)cn(C7CC7)c6c5OC)CC4C)c4ccc(F)cc43)nc2N)cc(OC)c1OC	-	-	<50 µg/mL
CCCC(NC(=O)[C@@H]1C[C@@H](OC(=O)N2CCc3ccccc3C2)CN1C(=O)[C@H](NC(=O)[C@H](NC(=O)c1cnccn1)C(C)C)C(C)C)C(=O)C(=O)NC1CCC1	-	-	10.2 µM
CC(C)CC[C@@]1(C)C(=O)C(C2=NS(=O)(=O)c3cc(NS(C)(=O)=O)ccc3N2)=C(O)c2ccccc21	2b	luciferase	2.928 µM
COc1ccc(-c2cnc3nc(N)nc(N4CCN(Cc5ccccn5)CC4)c3n2)cc1OC	HCV replicon	replicon	0.3–1 µM
C=C[C@@H]1C[C@]1(NC(=O)[C@@H]1C[C@@H](Oc2cc(-c3ccccc3)nc3cc(OC)ccc23)CN1C(=O)[C@@H](NC(=O)CCl)C(C)(C)C)C(=O)NS(=O)(=O)C1CC1	1b	replicon	<0.05 µM
COc1ccc(-c2cnc3nc(N)nc(N4CCN(C(=O)c5cccs5)CC4)c3n2)cc1OC	HCV replicon	replicon	<0.3 µM
CO[C@@H]1[C@H](O)[C@@H](CO)O[C@H]1n1cc(C#Cc2ccc(C)cc2)c(=O)[nH]c1=O	-	replicon	>300 µM
CCCOc1nc(N)nc2ncc(-c3ccc(F)cc3)nc12	-	-	1–10 µM
CCCCCCCCNc1nc(=O)c2nc(Br)n(Cc3ccccc3)c2c(=O)[nH]1	-	replicon	<10 µM
O=C(O)/C=C/c1ccc(NC(=O)C2(NC(=O)c3ccc4c(c3)nc(-c3cccs3)n4C3C[C@H]4CC[C@@H]3C4)CCCC2)cc1	-	-	≤5 µM
CCCCCOC(=O)Nc1ncnn2c([C@@H]3O[C@H](CO)[C@@H](O)[C@@]3(C)O)ccc12	-	luciferase / reporter gene	>100 µM
COc1nc(N)nc2c1ncn2[C@@H]1O[C@H](COP(=O)(N[C@@H](C)C(=O)OCC(C)(C)C)Oc2cccc3ccccc23)[C@@H](O)[C@@]1(C)O	1b replicon	luciferase / replicon	0.01 µM
COc1cccc(CC(=O)N/N=C/c2ccccc2OS(=O)(=O)c2ccc(-c3cnco3)s2)c1	-	replicon	<5 µM
COc1ccc(-c2cnc3nc(N)nc(N4CCN(CC5OCCO5)CC4)c3n2)cc1OC	HCV replicon	replicon	0.3–1 µM
O=C(O)c1ccc2c(C3CCCCC3)c3n(c2c1)CC(C(=O)N1CCOCC1)=Cc1ccc(Cl)cc1-3	-	replicon	1–10 µM
C[C@@H](NC(=O)c1ccc2c(c1)nc(-c1ccccn1)n2C1CCCCC1)C(=O)Nc1ccc(/C=C/C(=O)O)cc1	-	-	≤5 µM
COc1cc(Cc2cnc(/N=C3\C(=O)N(CN4CCN(c5cccc(C(F)(F)F)c5)CC4)c4ccc(F)cc43)nc2N)cc(OC)c1OC	-	-	<50 µg/mL
C[C@@]1(O)[C@H](O)[C@@H](CO)O[C@H]1c1cnc2c(=O)[nH]c(N)nn12	-	luciferase / reporter gene	>100 µM
CO[C@@H]1[C@H](O)[C@@H](CO)O[C@H]1n1cc(C#Cc2ccccn2)c(=O)[nH]c1=O	-	replicon	>300 µM
C[C@@H]1CCCC[C@H]1n1c(-c2ccccn2)nc2cc(C(=O)NC3(C(=O)Nc4ccc(/C=C/C(=O)O)cc4)CCCC3)ccc21	-	-	≤5 µM
CCCCCOC(=O)Nc1ncnn2c([C@@H]3O[C@H](CO[P@@](=O)(N[C@@H](C)C(=O)OC(C)C)Oc4ccccc4)[C@@H](O)[C@@]3(C)O)ccc12	-	luciferase / reporter gene	>100 µM
C=C[C@@H]1C[C@]1(NC(=O)[C@@H]1C[C@@H](Oc2cc(-c3ccccc3)nc3cc(OC)ccc23)CN1C(=O)[C@@H](NC(=O)OC(C)(C)C)C(C)(C)C)C(=O)NS(=O)(=O)c1ccccc1C(F)(F)F	1b	replicon	<0.5 µM
Nc1nc(N2CCOCC2)c2nc(-c3ccsc3)cnc2n1	-	-	1–10 µM
COc1cc(Cc2cnc(/N=C3\C(=O)N(CN4CCN(C)CC4)c4ccc(F)cc43)nc2N)cc(OC)c1OC	-	-	<50 µg/mL
O=C(O)/C=C/c1ccc(NC(=O)C2(NC(=O)c3ccc4c(c3)nc(-c3ccoc3)n4C3CCCC3)CCCC2)cc1	-	-	5–50 µM
CN(C)C(=O)C1=Cc2ccccc2-c2c(C3CCCCC3)c3ccc(C(=O)O)cc3n2C1	-	replicon	1–10 µM
CCCCCCCCCCNc1nc(=O)c2nc(Br)n(Cc3ccc(OC)cc3)c2c(=O)[nH]1	-	replicon	<10 µM
Nc1nc(OCC2CC2)c2nc(-c3ccc(F)cc3)cnc2n1	-	-	1–10 µM
O=C(Cc1ccccc1)N/N=C/c1ccccc1OS(=O)(=O)c1ccccc1Cl	-	replicon	>50 µM
CCCCCCCCNc1nc(=O)c2nc(Br)n(Cc3ccc(OC)cc3)c2c(=O)[nH]1	-	replicon	>10 µM
Nc1nc(N2CCOCC2)c2nc(-c3c(Cl)cccc3Cl)cnc2n1	-	-	1–10 µM
COC1[C@H](n2cc(C#CCN(C)C)c(=O)[nH]c2=O)O[C@H](CO)[C@H]1O	-	replicon	>300 µM
COC(=O)/C=C/c1ccc(NC(=O)C2(N(C)C(=O)c3ccc4c(C5CCCCC5)c5n(c4c3)CCCc3ccccc3-5)CCCC2)cc1	-	replicon	1–10 µM
CCn1cc(C(=O)O)c(=O)c2cc(F)c(N3CCN(CN4C(=O)/C(=N\c5ncc(Cc6cc(OC)c(OC)c(OC)c6)c(N)n5)c5cc(F)ccc54)CC3)cc21	-	-	<50 µg/mL
CCCC(NC(=O)[C@@H]1C[C@@H](OC(=O)N2CCc3ccccc3C2)CN1C(=O)[C@H](NC(=O)[C@H](NC(=O)c1cnccn1)C(C)C)C(C)C)C(=O)C(=O)N[C@@H](C)c1ccccc1	-	-	0.31 µM
C=C[C@@H]1C[C@]1(NC(=O)[C@@H]1C[C@@H](Oc2cc(-c3ccccc3)nc3cc(OC)ccc23)CN1C(=O)[C@H](CC(C)C)NC(=O)OC(C)(C)C)C(=O)NS(=O)(=O)C(C)C	1b	replicon	<0.5 µM
CN(c1ccccc1/C=N/NC(=O)Cc1cnc[nH]1)S(=O)(=O)c1ccc(C(F)(F)F)cc1	-	replicon	<5 µM
CCCCCCCCNc1nc(=O)c2nc(Br)n(COCc3ccccc3)c2c(=O)[nH]1	-	replicon	>10 µM
O=C(N/N=C/c1ccccc1OS(=O)(=O)c1ccc(C(F)(F)F)cc1)c1ccccc1C(F)(F)F	-	replicon	<5 µM
COc1ccc(-c2cnc3nc(N)nc(N4CCN(CCOc5ccccc5)CC4)c3n2)cc1OC	HCV replicon	replicon	<0.3 µM
Nc1nc(N2CCOCC2)c2nc(-c3cccc(Cl)c3Cl)cnc2n1	-	-	0.3–1 µM
C=C[C@@H]1C[C@]1(NC(=O)[C@@H]1C[C@@H](Oc2cc(-c3ccccc3)nc3cc(OC)ccc23)CN1C(=O)[C@@H](NC(=O)OC(C)(C)C)C(C)(C)C)C(=O)NS(=O)(=O)c1cccc2ccccc12	1b	replicon	<0.5 µM
COc1ccc(-c2cnc3nc(N)nc(N4CCN(CC(=O)N5CCOCC5)CC4)c3n2)cc1OC	HCV replicon	replicon	0.3–1 µM
CNOCc1ccc(-c2cnc3nc(N)nc(N4CCOCC4)c3n2)cc1	-	-	1–10 µM
COc1ccc(-c2cnc3nc(N)nc(N4CCN(C(=O)/C=C/c5ccccc5)CC4)c3n2)cc1OC	HCV replicon	replicon	<0.3 µM
Cc1nc(C(=O)O)sc1-c1ccc(NC(=O)C2(NC(=O)c3ccc4c(c3)nc(-c3ccoc3)n4C3CCCCC3)CCCC2)cc1	-	-	≤5 µM
CO[C@@H]1[C@H](O)[C@@H](CO)O[C@H]1n1cc(C#Cc2ccc(C(F)(F)F)cc2)c(=O)[nH]c1=O	-	replicon	>300 µM
COC(=O)C(C)(C)NP(=O)(OC[C@H]1O[C@@H](c2ccc3c(N)ncnn23)[C@](C)(O)[C@@H]1O)Oc1cccc2ccccc12	-	luciferase / reporter gene	4.9 µM
Cc1cc(F)ccc1-c1cnc2nc(N)nc(N3CCOCC3)c2n1	-	-	1–10 µM
COc1ccc(-c2cnc3nc(N)nc(N4CCN(C(=O)Nc5ccc(Br)cc5)CC4)c3n2)cc1OC	HCV replicon	replicon	<0.3 µM
Nc1nc(N)c2ncn([C@@H]3O[C@H](CO)[C@@H](O)[C@@H]3F)c2n1	-	replicon	10 µM
C[C@@]1(O)[C@H](O)[C@@H](CO)O[C@H]1c1cnc2c(N)ncnn12	-	luciferase / reporter gene	1.3 µM
O=C(O)/C=C/c1ccc(NC(=O)C2(NC(=O)c3ccc4cc5n(c4c3)CC(=O)Nc3cccnc3-5)CCCC2)cc1	-	replicon	0.01–1 µM
C=C[C@@H]1C[C@]1(NC(=O)[C@@H]1C[C@@H](Oc2cc(-c3ccccc3)nc3cc(OC)ccc23)CN1C(=O)[C@@H](NC(=O)OC(C)(C)C)C(C)(C)C)C(=O)NS(=O)(=O)CC1CCC1	1b	replicon	<5 µM
CC(C)C(=O)O[C@@H]1[C@@H](CO)O[C@@H](c2ccc3c(N)ncnn23)[C@]1(C)O	-	luciferase / reporter gene	2 µM
C=C[C@@H]1C[C@]1(NC(=O)[C@@H]1C[C@@H](Oc2cc(-c3ccccc3)nc3cc(OC)ccc23)CN1C(=O)[C@@H](NC(=O)OC(C)(C)C)C(C)(C)C)C(=O)NS(=O)(=O)CC	1b	replicon	<0.5 µM
COc1cc(Cc2cnc(/N=C3\C(=O)N(CN4CCN(c5cc6c(cc5F)c(=O)c(C(=O)O)cn6C5CC5)CC4)c4ccc(F)cc43)nc2N)cc(OC)c1OC	-	-	<50 µg/mL

Conditions beyond the fields shown may differ between rows. Blank or dashed fields: not listed here. a–b is a range or a potency band.